Zika virus NS2B-NS3: effect of single substitutions on growth in cell culture

Reference: Ni et al. 2025, doi:10.1038/s41467-025-63602-z.

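Pools of virus carrying all single amino acid changes were selected for growth in Huh-7.5 cells. Deep sequencing gave the change in frequency of each mutant relative to wild type, averaged over three replicate libraries (two for positions 207-308). The aim was to find sites where inhibitor-binding pockets cannot change.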

The scanned region of Zika virus MR766 is shown below (positions 1-308): NS2B is 2-131, NS3 begins at position 132.
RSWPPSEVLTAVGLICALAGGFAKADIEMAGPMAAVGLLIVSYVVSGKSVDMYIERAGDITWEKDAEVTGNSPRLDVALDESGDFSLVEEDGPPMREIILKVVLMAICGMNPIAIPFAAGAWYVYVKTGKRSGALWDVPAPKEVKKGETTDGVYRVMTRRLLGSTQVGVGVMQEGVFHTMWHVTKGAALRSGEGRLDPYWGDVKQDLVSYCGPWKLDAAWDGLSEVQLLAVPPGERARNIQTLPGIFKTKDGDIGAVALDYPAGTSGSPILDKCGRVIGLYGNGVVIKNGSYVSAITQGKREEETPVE

Scale: log2 effect, wild type = 0; the lower, the more harmful to the virus. A change reads original residue, position, new residue. All changes here are to phenylalanine. Six mutants with high scores were retested singly and none clearly outgrew wild type, so positive values are not proof of better growth. The region was split into three libraries (1-103, 104-206, 207-308). Position 1 still belongs to NS2A. In the paper, -1 or higher counts as tolerated.

* R1F: -6.78
* S2F: -6.40
* W3F: -0.59
* P4F: -5.03
* P5F: -5.86
* S6F: -5.35
* E7F: -5.89
* V8F: -3.39
* L9F: -1.42
* T10F: -5.28
* A11F: -5.80
* V12F: -5.81
* G13F: -5.81
* L14F: -2.51
* I15F: -5.64
* C16F: -4.53
* A17F: -4.79
* L18F: -5.83
* A19F: -1.88
* G20F: -6.49
* G21F: -1.77
* A23F: -5.21
* K24F: -5.44
* A25F: -1.86
* D26F: -5.43
* I27F: -3.88
* E28F: -3.98
* M29F: 0.31
* A30F: -6.07
* G31F: -5.73
* P32F: -4.80
* M33F: 0.35
* A34F: -5.94
* A35F: -5.54
* V36F: -4.49
* G37F: -3.67
* L38F: -4.98
* L39F: -3.97
* I40F: -0.13
* V41F: -5.41
* S42F: -5.55
* Y43F: -4.24
* V44F: -4.89
* V45F: -4.56
* S46F: -6.04

The first 5 entries again:

mutation,log2 effect
R1F,-6.78
S2F,-6.40
W3F,-0.59
P4F,-5.03
P5F,-5.86